# Literature values, collected in patent US9227852B2, “Apparatus, systems, and methods for water treatment” (McWong Environmental Technology, priority 2008, dated 2016).
# Settings: concentration at which the average person detects the odor; cited from earlier work
row,Structure (SMILES),Odor threshold [ng/L]
1,"CC1(C)[C@@H]2CC[C@@]1(C)[C@](C)(O)C2 [2-methylisoborneol (MIB), 2-methylisoborneol]",9
2,CC1CCCC2(C)CCCCC12O (centres unmarked) [Geosmin],4
